Taken from: PubChem BioAssay AID1259414 (Drosophila RNAi Screening Center, 2018)

Assay: 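Host factors increasing or decreasing Wolbachia levels in cultured fly cells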 (primary screen)
Cell system: Drosophila JW18 cells infected with Wolbachia
Reagent: long dsRNA against Drosophila genes, 0.25 µg dsRNA per well of a 384-well plate
Timing: 5 days
Treatment: cells persistently infected with Wolbachia before knock-down; no added drug
Measured: 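Imaged fluorescence in situ signal for Wolbachia 23S rRNA per DAPI-counted host cell, given as a robust z-score within each plate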
Reading the numbers: Wolbachia per cell robust z: higher = more Wolbachia per host cell than the plate typical
Call rule: 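Active if absolute robust z reaches 1.5 in two or more of three replicates, leaving out multi- or no-target dsRNAs, genes unexpressed in JW18 and A1 wells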
The deposit covers about 24,000 reagents; this is an unselected part of those with a known target gene and a result. In the full data, about 1,210 (5%) were called active. 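Inactive calls also include excluded dsRNAs with several or no targets, genes unexpressed in JW18, and well A1, regardless of score.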 Names joined by + are all predicted targets of the reagent.

Gene,amplicon,"Wolbachia per cell robust z, rep 1","Wolbachia per cell robust z, rep 2","Wolbachia per cell robust z, rep 3",outcome
CG42259,DRSC40602,-2.42,-1.51,-1.96,active
CG4691,DRSC01950,0.292,-2.36,-0.475,inactive
CG4691,DRSC27902,-0.836,0.864,-0.736,inactive
Zyx,DRSC17186,0.717,1.22,0.249,inactive
CG13088,DRSC02192,-3.13,0.306,0.58,inactive
ninaA,DRSC00830,-6.49,-9.83,0.719,inactive
CG10628,DRSC02080,-4.43,-0.00426,0.416,inactive
CG17493,DRSC03798,-0.217,0.716,-5.47,inactive
mRpL42,DRSC06235,-0.136,0.128,-3.43,inactive
ppk21,DRSC14466,-0.694,0.0308,-0.327,inactive
Mgat4a,DRSC09326,-0.766,0.177,0.663,inactive
Mgat4a,DRSC11070,0.868,-2.36,-0.138,inactive
Trxr1,DRSC18668,-0.172,0.352,-1.68,inactive
Trxr1,DRSC22293,0.915,1.34,-0.559,inactive
Trxr1,DRSC25749,-3.74,1.62,0.581,inactive
Trxr1,DRSC40772,-0.213,-0.514,0.728,inactive
gol,DRSC04689,-1.45,-0.236,-1.15,inactive
CG42383,DRSC21733,-0.258,0.596,-0.851,inactive
CG7252,DRSC10789,-1.55,-0.0294,-1.34,inactive
CG7252,DRSC21492,0.383,-1.49,0.0267,inactive
D19B,DRSC11134,1.04,-0.67,0.0802,inactive
D19B,DRSC25382,0.809,1.17,0.994,inactive
Mkk4,DRSC16739,1.25,-0.254,0.486,inactive
Mkk4,DRSC29113,-1.44,-0.151,0.409,inactive
OtopLb,DRSC00594,-1.94,-0.567,0.469,inactive
OtopLb,DRSC27337,-0.666,-1.12,-0.914,inactive
CG13065,DRSC09948,-0.739,-0.443,1.49,inactive
CG13065,DRSC28005,0.0371,0.00216,1.43,inactive
CG5171,DRSC02823,0.708,-0.225,-0.926,inactive
CG5171,DRSC28092,-0.0312,0.414,0.104,inactive
CG5171,DRSC41586,-2.28,0.913,-0.288,inactive
CG5391,DRSC15790,0.59,-1.56,1.3,inactive
Frl,DRSC09300,1.73,-0.624,0.799,inactive
Frl,DRSC10027,1.45,2.48,1.82,inactive
Frl,DRSC10716,1.11,1.85,1.18,inactive
Frl,DRSC28783,1.11,1.2,1.11,inactive
CG30270,DRSC22890,-0.325,-0.963,-1.18,inactive
CG13102,DRSC02202,-3.53,-0.0976,0.823,inactive
CG11134,DRSC19384,-0.721,-0.254,-0.744,inactive
Asph,DRSC06783,0.653,0.326,0.473,inactive
Asph,DRSC07171,1.03,0.942,-1.15,inactive
Asph,DRSC29507,-8.38,0.227,-2.6,active
CG2063,DRSC06811,3.56,2.78,1.74,active
CG10866,DRSC08171,0.617,0.127,-1.13,inactive
CG10866,DRSC29672,0.465,-0.206,0.0345,inactive
CG31650,DRSC03140,1.16,1.66,1.51,active
CG31650,DRSC28972,-0.643,-1.13,-6.92,inactive
CG4701,DRSC01952,0.599,-0.72,1.13,inactive
CG4701,DRSC41435,0.0153,-0.229,0.927,inactive
ninaE,DRSC17014,-0.785,-0.292,-0.875,inactive
ninaE,DRSC25724,-0.354,1.25,0.874,inactive
esc,DRSC03529,-11.4,-1.75,-11.8,active
esc,DRSC28970,0.0163,-0.745,0.155,inactive
Rpn13,DRSC06379,0.338,0.707,-0.345,inactive
RacGAP84C,DRSC12630,-0.0698,-0.448,0.0196,inactive
ARY,DRSC39036,0.543,-1.6,-0.191,inactive
CG3603,DRSC18317,0.178,1.15,-1.66,inactive
CG42307 + mus312,DRSC11008,-0.0787,-0.0133,1.05,inactive
spt4 + Mvk + CG33672,DRSC05356,-0.518,-0.459,-0.0182,inactive
Tango14,DRSC00667,-0.813,0.262,-2.17,inactive
Tango14,DRSC29882,0.267,-0.263,0.295,inactive
Gr22e,DRSC20912,-0.648,0.165,-3.66,inactive
Fbxl7,DRSC15553,-4.03,-0.591,-0.561,inactive
Fbxl7,DRSC25664,0.353,0.19,-0.211,inactive
Nep4,DRSC15539,-0.445,0.849,0.274,inactive
CG11842,DRSC14400,0.243,0.584,1.8,inactive
CG11842,DRSC24924,-0.0213,0.42,-1.24,inactive
CG6296,DRSC16013,-1.72,-0.896,-0.73,inactive
CG16723,DRSC15138,-3.19,0.574,-3.74,inactive
CG16723,DRSC28144,0.672,-1.21,0.744,inactive
CG10588,DRSC11628,1.11,-1.18,1.49,inactive
Dso2,DRSC37896,0.0772,1.18,-1.03,inactive
inaE,DRSC19376,-2.24,-0.453,-0.143,inactive
inaE,DRSC19377,-0.258,-6.7,-1.46,inactive
inaE,DRSC19379,0.218,0.0509,0.759,inactive
inaE,DRSC26883,-1.27,-1.22,-3.21,inactive
CG34355,DRSC13639,-0.835,0.0275,0.747,inactive
CG34355,DRSC14520,-0.0704,0.0834,-0.419,inactive
CG34355,DRSC14668,0.108,-1.77,0.504,inactive
CG34355,DRSC21687,0.359,-0.83,0.689,inactive
stet,DRSC08246,-0.208,0.116,0.204,inactive
stet,DRSC08283,0.0757,-1.16,0.0586,inactive
scpr-B + scpr-A + scpr-C,DRSC26639,-0.628,0.182,0.131,inactive
Ubc2,DRSC01137,0.237,-2.32,-0.432,inactive
Ubc2,DRSC03468,-0.147,0.332,0.322,inactive
Ubc2,DRSC29062,-1.53,-1.67,-1.23,active
Drsl6,DRSC08161,-0.24,0.39,-0.833,inactive
